Pooled drug test results. Numbers come from NIAID ChemDB, via PubChem.

Common to all: growth or infection tests; organism: Toxoplasma gondii; read-out: EC50

Blank or dashed fields: not listed here. Conditions beyond the fields shown may differ between rows. ECn is the concentration giving n% inhibition of infection, replication or growth.

structure	read by	cell line	strain	value
O=C1c2cc(I)ccc2-n2c1nc1ccccc1c2=O	-	HFF	ATCC 50839	0.0003 µg/mL
CCOC(=O)C1C(c2ccccc2)CC(c2ccccc2)=CC12NCCN2	-	HFF	RH	0.0097 µM
CC(C)=CCCc1ccc2c(c1)C(=O)C(N1CCCC1)=CC2=O	ELISA	-	RH (type I)	69.35 µM
CO[C@@H]1[C@@H](O[C@@H]2O[C@H](C)[C@@H](O[C@H]3C[C@@](C)(O)[C@@H](O)[C@H](C)O3)[C@H](N(C)C)[C@H]2O)[C@@H](CC=O)C[C@@H](C)[C@@H](O[C@H]2CC[C@H](N(C)C)[C@H](C)O2)/C=C/C=C/C[C@@H](C)OC(=O)C[C@H]1O	-	-	-	>1 µg/mL
CC[C@@]1(C)NC(=O)[C@H](CCCCCC(=O)[C@H](C)OC(C)=O)NC(=O)[C@H]2C[C@H](C)CN2C(=O)C(Cc2ccccc2)NC1=O	-	HFF	RH	0.0102 µM
Cc1ccc2[nH]c(O)c(C3=Nc4ccccc4C3=O)c2c1	-	HFF	ATCC 50839	>320 µg/mL
Cc1[nH]c2ccccc2c(=O)c1-c1ccc(Oc2ccc(OC(F)(F)F)cc2)cc1	absorbance	-	2F	0.0001 µM
CCOC(=O)C1C(c2ccc(Cl)cc2)CC(c2ccccc2)=CC12NCCN2	-	HFF	RH	0.0097 µM
CCCCCCN(CC1=C(O)c2ccccc2C(=O)C1=O)Cc1ccccc1	-	-	ATO	1.4 µM
CC1=C(C(=O)NCc2ccc(C(F)(F)F)cc2)OC2OC3(C)CC[C@H]4[C@H](C)CC[C@@H]1[C@@]24OO3	β-galactosidase	HFF	2F	0.51 µM
CC(C)CCCc1ccc2c(c1)C(=O)C=C(N1CCCC1)C2=O	ELISA	-	RH (type I)	0.32 µM
CCOC(=O)C1C(c2ccccc2)CC(c2ccc(OC)cc2)=CC12NCCN2	-	HFF	RH	0.0097 µM
C/C(=C\Cc1ccccc1)CCC[C@H](C)C[C@]1(C)C[C@@]2(C)OC(=O)C[C@H]2OO1	-	HFF	RH	<10 µM
O=Nc1c(-c2c(O)[nH]c3ccc([N+](=O)[O-])cc23)[nH]c2ccccc12	-	HFF	ATCC 50839	0.4 µg/mL
CC1=C(C(=O)NCc2cc(Br)cc(Br)c2)OC2OC3(C)CC[C@H]4[C@H](C)CC[C@@H]1[C@@]24OO3	β-galactosidase	HFF	2F	0.36 µM
C=C(C)CN(CC)c1c([N+](=O)[O-])cc(C(F)(F)F)cc1[N+](=O)[O-]	-	-	Trifluralin-resistant	0.7 µM
COC(=O)C1=C(C)[C@@H]2CC[C@@H](C)[C@@H]3CC[C@]4(C)OO[C@@]23[C@H](O1)O4	β-galactosidase	HFF	-	2.9 µM
O=C1c2ccccc2-c2c3c(cc4ccnc1c24)OCO3	ELISA	-	RH (type I)	0.07 µM
COc1cc(C(C)C#Cc2c(C)nc(N)nc2N)cc(OC)c1OC	-	-	-	0.001 µM
CCc1nc(N)nc(N)c1-c1ccc(Cl)cc1	MTS	-	-	19.7 µM
Nc1ccc(S(=O)(=O)Nc2ncccn2)cc1	ELISA	-	RH	7.3 µg/mL
CCOC(=O)C1C(c2ccc(OC)cc2)CC(c2ccc(Cl)cc2)=CC12NCCN2	-	HFF	RH	0.0097 µM
O=C1c2cc(F)ccc2-n2c1nc1ccccc1c2=O	-	HFF	ATCC 50839	0.001 µg/mL
CC1=C(C(=O)NCc2ccc(C)cc2)OC2OC3(C)CC[C@H]4[C@H](C)CC[C@@H]1[C@@]24OO3	β-galactosidase	HFF	2F	0.47 µM

The first 3 rows once more:

{"structure": "O=C1c2cc(I)ccc2-n2c1nc1ccccc1c2=O", "cell line": "HFF", "strain": "ATCC 50839", "value": "0.0003 µg/mL"}
{"structure": "CCOC(=O)C1C(c2ccccc2)CC(c2ccccc2)=CC12NCCN2", "cell line": "HFF", "strain": "RH", "value": "0.0097 µM"}
{"structure": "CC(C)=CCCc1ccc2c(c1)C(=O)C(N1CCCC1)=CC2=O", "read by": "ELISA", "strain": "RH (type I)", "value": "69.35 µM"}